# In US20200109188A1, “Neutralizing anti-influenza A antibodies and uses thereof” (AstraZeneca / MedImmune, published 2020):
# Positions count from the first letter of the chain named.
# B1: Antibody 10 (antibody, V domains shown)
# VH: QVQLQQSGPGLVKPSQTLSLTCAISGDSVSSNSATWNWIRQSPSRGLEWLGRTYYRSKWYNDYADFLKRRITINPDTSNNEVSLRLTSVTPDDTALYYCARGGHITVFGVNIDAFDVWGQGTMVTVSS
# VL: DIQMTQSPSSLSASVGDRITISCRTSQSLRSYLHWYQQKPGKAPKLLIYASSTLQSGVPSRFSGSGSGTDFTLTISNLQPEDFATYYCQLSRTFGQGTKVEIK
# B2: Antibody 6 (antibody, V domains shown)
# VH: QVQLQQSGPGLVKPSQTLSLTCAISGDRVSSNSAVWNWIRQSPSRGLEWLGRTYYRSKWYYDYAESVKSRIVIDPDTSKNQVSLQLNSVTPEDSAIYYCARGGHITEFGLNIDAYDIWGQGAMVTVSS
# VL: DIQMTQSPSSLSASVGDRVTISCRAQSLSSYLHWYQQKPGQPPKLLIYAATTLQSGVPSRFSGSGSGTDFTLTISTFQAEDVATYYCQQSRTFGQGTKVEIK
# B3: Antibody 8 (antibody, V domains shown)
# VH: QVQLQQSGPGLVKPSQTLSLTCVISGDTVSSNRATWNWMRQSPLRGLEWLGRTYYRSKWYNDYAVSVKSRVVINPDTSKNQVSLQLNTVTPDDSGVYFCARGGHITVFGVNIDAFDIWGLGTKVTVSS
# VL: DIQMTQSPSSLSASVGDRVTISCRASQRLNSYLHWYQQTPGQAPKLLIYATSTLQSGVSPRFSGSGSGTDFTLTISSLQPEDVATYYCQLSRTFGHGTKVEIK
# B4: Antibody 5 (antibody, V domains shown)
# VH: B2 VH with E107V
# VL: B2 VL
# Target: recombinant HA subtype H1 (A/California/7/09 (H1N1)) (influenza A virus)
# Test: not given
row,Binder,EC50 [µg/mL]
1,B1,0.073
2,B2,0.311
3,B3,0.069

# Target: HA of ca A/California/7/09 (H1N1) virus (influenza A virus)
# Test: cell-based or functional assay
row,Binder,"Neutralization IC50, H1-CA09 [µg/mL]"
1,B1,1.62
2,B4,2.52
3,B2,5.56
4,B3,4.5
